Record: PubChem BioAssay AID624099 (ICCB-Longwood, 2012)
Here is one part, drawn at random, of about 21,000 deposited reagents. 497 of them (2.4%) were called active. 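Higher z means weaker E2 silencing; only reporter increases were scored, and knock-downs that hurt cell survival may mask genuine repressor factors.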 Reagents against one gene are numbered here. Reagent sequences are not shown.

Purpose: 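Host factors E2 relies on to silence an HPV18 LCR reporter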 (primary screen)
Cells: human C33A cervical carcinoma cells (HPV-negative) stably expressing BPV1 E2 and an HPV18 LCR luciferase reporter
Knock-down reagent: siRNA pool against human genes, 40 nM
Duration: 72 h
Measurement: 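Per-well luciferase luminescence, z-scored on each plate against the plate mean and SD with control wells left out, then averaged across three replicate plates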
Reading the numbers: mean z-score and z-score: higher = stronger reporter signal, weaker E2 silencing
Rule for the call: 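Hit if mean z-score reaches 2 and two or more of three replicate z-scores also reach 2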

| target | pool no. | mean z-score | z-score, replicate A | z-score, replicate B | z-score, replicate C | activity call |
| --- | --- | --- | --- | --- | --- | --- |
| FAM9B (GeneID 171483) | 1 | -0.32 | -0.86 | 0.03 | -0.12 | inactive |
| TGM7 (GeneID 116179) | 1 | -0.97 | -0.8 | -1.16 | -0.97 | inactive |
| ATP5MC3 (GeneID 518) | 1 | 0.81 | 0.91 | 0.66 | 0.85 | inactive |
| IGHV5-78 (GeneID 28387) | 1 | -1.53 | -1.58 | -1.67 | -1.36 | inactive |
| LOC643348 (GeneID 643348) | 1 | -0.45 | -0.54 | -0.24 | -0.57 | inactive |
| CIB1 (GeneID 10519) | 1 | -1.16 | -0.93 | -1.31 | -1.24 | inactive |
| LINC00670 (GeneID 284034) | 1 | -1.28 | -1.25 | -1.44 | -1.16 | inactive |
| FOLH1B (GeneID 219595) | 1 | -0.07 | 0.53 | 0.14 | -0.87 | inactive |
| SLC34A1 (GeneID 6569) | 1 | -0.14 | 0.27 | -0.27 | -0.41 | inactive |
| NUDT19 (GeneID 390916) | 1 | 0.21 | 0.18 | 0.42 | 0.03 | inactive |
| MCM5 (GeneID 4174) | 1 | 0.37 | 0.43 | 0.42 | 0.25 | inactive |
| LOC390278 (retired record) (GeneID 390278) | 1 | 2.15 | 2.3 | 1.88 | 2.27 | active |
| LOC339746 (retired record) (GeneID 339746) | 1 | -0.73 | -0.87 | -0.43 | -0.9 | inactive |
| TNIP1 (GeneID 10318) | 1 | 1.53 | 1.71 | 1.53 | 1.35 | inactive |
| HAVCR2 (GeneID 84868) | 1 | 0.32 | 0.24 | 0.25 | 0.47 | inactive |
| ZPBP (GeneID 11055) | 1 | -1.13 | -0.94 | -1.38 | -1.07 | inactive |
| GFRA4 (GeneID 64096) | 1 | 0.31 | 0.32 | 0.34 | 0.27 | inactive |
| AIMP1 (GeneID 9255) | 1 | -0.08 | 0.05 | -0.12 | -0.18 | inactive |
| PDLIM5 (GeneID 10611) | 1 | 0.21 | 0.37 | 0.16 | 0.11 | inactive |
| CCK (GeneID 885) | 1 | 0.51 | 0.24 | 0.82 | 0.47 | inactive |
| PPAT (GeneID 5471) | 1 | -0.56 | -0.51 | -0.77 | -0.41 | inactive |
| SLC26A2 (GeneID 1836) | 1 | -0.58 | -0.48 | -0.39 | -0.88 | inactive |
| CCDC97 (GeneID 90324) | 1 | 1.3 | 0.41 | 1.31 | 2.17 | inactive |
| PRKX (GeneID 5613) | 1 | 0.01 | 0.21 | -0.06 | -0.13 | inactive |
| PSMA3 (GeneID 5684) | 1 | 0.9 | 0.84 | 0.87 | 1 | inactive |
| NPAP1 (GeneID 23742) | 1 | -0.07 | 0.02 | 0.09 | -0.32 | inactive |
| HNRNPA3P4 (GeneID 389395) | 1 | 0.77 | 0.54 | 0.85 | 0.92 | inactive |
| MYOM3 (GeneID 127294) | 1 | 1.23 | 1.31 | 1.49 | 0.89 | inactive |
| GRM4 (GeneID 2914) | 1 | -0.29 | -0.19 | -0.26 | -0.41 | inactive |
| COX8A (GeneID 1351) | 1 | -0.41 | -0.48 | -0.37 | -0.39 | inactive |
| ARRDC3 (GeneID 57561) | 1 | 2.44 | 2.21 | 2.73 | 2.39 | active |
| LOC400298 (retired record) (GeneID 400298) | 1 | -1.71 | -1.65 | -1.76 | -1.7 | inactive |
| CEP135 (GeneID 9662) | 1 | 1.1 | 0.68 | 1.48 | 1.14 | inactive |
| TAF1C (GeneID 9013) | 1 | -0.08 | -0.06 | -0.14 | -0.05 | inactive |
| ATAD3A (GeneID 55210) | 1 | 1.52 | 2.05 | 1.45 | 1.07 | inactive |
| DNAH2 (GeneID 146754) | 1 | -0.68 | -0.78 | -0.34 | -0.91 | inactive |
| DNAH2 (GeneID 146754) | 2 | 0.09 | 0.59 | -0.44 | 0.12 | inactive |
| CLEC4C (GeneID 170482) | 1 | 0.75 | 0.7 | 0.45 | 1.08 | inactive |
| GABRP (GeneID 2568) | 1 | -0.09 | -0.08 | -0.11 | -0.08 | inactive |
| SLC75A1 (GeneID 10227) | 1 | -0.47 | -0.39 | -0.37 | -0.66 | inactive |
| PID1 (GeneID 55022) | 1 | 0.3 | 0 | 0.11 | 0.79 | inactive |
| SHANK1 (GeneID 50944) | 1 | -0.07 | -0.04 | -0.05 | -0.11 | inactive |
| LSM14A (GeneID 26065) | 1 | 0.14 | 0.22 | -0.13 | 0.34 | inactive |
| NELFE (GeneID 7936) | 1 | -0.65 | -0.45 | -0.75 | -0.75 | inactive |
| ECRG4 (GeneID 84417) | 1 | -0.39 | 0.04 | -0.32 | -0.88 | inactive |
| MIR1-1HG (GeneID 128826) | 1 | -0.73 | -0.66 | -0.87 | -0.67 | inactive |
| LIG4 (GeneID 3981) | 1 | -0.46 | -0.54 | -0.22 | -0.64 | inactive |
| TUBB4B (GeneID 10383) | 1 | -0.06 | 0.05 | -0.04 | -0.2 | inactive |
| SYPL2 (GeneID 284612) | 1 | 1.89 | 1.71 | 1.59 | 2.37 | inactive |
| CLIC3 (GeneID 9022) | 1 | -1.07 | -1.33 | -0.75 | -1.14 | inactive |
| ZNF664 (GeneID 144348) | 1 | 0.11 | 0.67 | -0.08 | -0.26 | inactive |
| TMEM109 (GeneID 79073) | 1 | 0.37 | 0.42 | 0.51 | 0.19 | inactive |
| WASF2 (GeneID 10163) | 1 | 0.05 | 0.15 | 0.04 | -0.02 | inactive |
| SRPK1 (GeneID 6732) | 1 | -0.21 | -0.27 | -0.08 | -0.28 | inactive |
| LOC389325 (retired record) (GeneID 389325) | 1 | -0.13 | 0.2 | -0.09 | -0.49 | inactive |
| GPR15LG (GeneID 387695) | 1 | -0.03 | -0.41 | 0.2 | 0.11 | inactive |
| TMEM38B (GeneID 55151) | 1 | 1.59 | 1.56 | 1.78 | 1.44 | inactive |

Not a retest: an excerpt of the list.
| target | pool no. | mean z-score | z-score, replicate A | z-score, replicate B | z-score, replicate C | activity call |
| --- | --- | --- | --- | --- | --- | --- |
| GFRA4 (GeneID 64096) | 1 | 0.31 | 0.32 | 0.34 | 0.27 | inactive |
| AIMP1 (GeneID 9255) | 1 | -0.08 | 0.05 | -0.12 | -0.18 | inactive |
| PDLIM5 (GeneID 10611) | 1 | 0.21 | 0.37 | 0.16 | 0.11 | inactive |
